Assay results published in patent publication US6602664B2 (priority 1998, dated 2003).
Several values for one entry are separate records, joined by “and”; a condition that tells them apart may be missing. Identical values can stand only once. Like-named read-outs stand apart in the source and are kept apart here.

Test system: HIV-1/LAI
Assay type: cell-based
[1] = HIV-1 infected PBM cells, reverse transcriptase region

Row | Compound | mutation selected / induced in HIV-1 | Week (mixed mutation first observed on passage) (human PBM cells) | mutation selected / induced in HIV-1 [1] | Week (full mutation first observed on passage) (human PBM cells) | Week (full mutation first observed on passage) (virus cultured in CEM cells)
1 | Nc1nc(=O)n([C@H]2CS[C@@H](CO)O2)cc1F (racemic) [(−) and racemic FTC, 2′,3′-dideoxy-3′-thia-5-fluorocytidine] | VI 84 | – | – | – | –
2 | Cc1c(O)cccc1C(=O)N[C@@H](CSc1ccccc1)[C@H](O)CN1C[C@H]2CCCC[C@H]2C[C@H]1C(=O)NC(C)(C)C (relative stereo) [Nelfinavir, [3S-[2(2S*,3S*),3-alpha,4-a-beta,8a-beta-]]-N-(1,1-dimethylethyl)decahydro-2-)2-hydroxy-3-[(3-hydroxy-2-methylbenzoyl)amino]-4-(phenylthio)butyl]-3-isoquinolincarboxamide mono-methanesulfonate] | – | 5 Week | – | – | –
3 | [N-]=[N+]=N[C@H]1C[C@H](n2ccc(=O)[nH]c2=O)O[C@@H]1CO [CS-87, 3′-Azido-2′,3′-dideoxyuridine] | – | 8 Week | transient mutation in HIV-1 at the 70th codon (K to R; i.e., lysine to arginine) | – | –
4 | Cc1cn([C@H]2C[C@H](N=[N+]=[N-])[C@@H](CO)O2)c(=O)nc1N [CS-092, 3′-azido-2′,3′-deoxy-5-methylcytidine] | – | 6 Week | – | 18 Week | –
5 | Nc1nc(=O)n([C@H]2C=C[C@@H](CO)O2)cc1F [L-D4FC, 2′,3′-didehydro-2′,3′-dideoxy-5-fluorocytidine] | – | – | – | – | 11 Week and 17 Week
6 | Nc1nc(=O)n([C@H]2CC[C@@H](CO)O2)cc1F [L-FddC, β-L-5-fluoro-2′,3′-dideoxycytidine] | – | 5 Week | VI 84 | 8 Week | –
7 | CC(C)CN(C[C@@H](O)[C@H](Cc1ccccc1)NC(=O)O[C@H]1CCOC1)S(=O)(=O)c1ccc(N)cc1 [VX-478, (S)-tetrahydrofuran-3-yl-N-[(1S,2R)-3-[N-[(4-aminophenyl)sulfonyl]-N-isobutylamino]-1-benzyl-2-hydroxypropyl]carbamate] | – | 8 Week | – | 10 Week | –
8 | (−)-α-2′,3′-dideoxy-3′-thia -5-fluorocytidine [(−)-FTC] | – | 2 Week | – | 3 Week | –
